In PMC9143577 (Molecules, 2022):

Assay: general procedure: Fmoc solid-phase peptide synthesis; aldehyde resin, reductive amination with palmitylamine; DIPCDI/HOBt
Conditions: whole synthesis, scale of the general procedure 1.0 mmol resin, split over syringes, TFA salt (2TFA)

| Substance | outcome |
| --- | --- |
| C15H31C(O)-Lys-(Ala)4-Lys-NHC16H33.2TFA | purification by HPLC was not possible due to solubility problems |
| C15H31C(O)-Lys-(Ala)3-Lys-NHC16H33.2TFA | purification by HPLC was not possible due to solubility problems |
